# Potato spindle tuber viroid, loop 6: variant abundance in plants

Region: loop 6 of PSTVd (intermediate strain), upper and lower strand joined, each 5' to 3', the first 5 letters being the upper strand, closing pairs included. Wild type: UGACCGCGAG. Varied positions (N): UNNNCGNNNG.

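A pool of all variants was put on leaves of three Nicotiana benthamiana plants. Progeny were sequenced from the inoculated region (day 5), the margin of the inoculated leaf (day 10) and systemic leaves (day 12).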

Numbers give reads per thousand; 0 = not seen among the reads, higher = more abundant. Each site shows the three plants. "Pool" is the share in the plasmid pool used as inoculum, on the same scale. The inoculated region was read from the minus strand, the other sites from the plus strand. IR is the inoculated region, LM the leaf margin, Sys the systemic leaves.

{"sequence": "UUCACGUAUG", "pool": "0.523", "IR": "0.174 / 0.0719 / 0.129", "LM": "0.442 / 0 / 0", "Sys": "0 / 0 / 0"}
{"sequence": "UUCACGUCAG", "pool": "0.379", "IR": "0.0348 / 0.126 / 0.111", "LM": "0 / 0 / 0", "Sys": "0 / 0 / 0"}
{"sequence": "UUCACGUCCG", "pool": "0.288", "IR": "0.139 / 0.0898 / 0.111", "LM": "0 / 0 / 0.0232", "Sys": "0 / 0 / 0"}
{"sequence": "UUCACGUCGG", "pool": "0.301", "IR": "0.156 / 0.0719 / 0.129", "LM": "0 / 0 / 0", "Sys": "0 / 0 / 0"}
{"sequence": "UUCACGUCUG", "pool": "0.353", "IR": "0.0869 / 0 / 0.0922", "LM": "0.0276 / 0 / 0", "Sys": "0 / 0 / 0"}
{"sequence": "UUCACGUGAG", "pool": "0.275", "IR": "0.104 / 0.162 / 0.0553", "LM": "0.0276 / 0 / 0", "Sys": "0.0180 / 0 / 0"}
{"sequence": "UUCACGUGCG", "pool": "0.340", "IR": "0.139 / 0.108 / 0.0553", "LM": "0 / 0 / 0", "Sys": "0 / 0 / 0"}
{"sequence": "UUCACGUGGG", "pool": "0.222", "IR": "0.0869 / 0.0898 / 0.0184", "LM": "0 / 0 / 0", "Sys": "0 / 0 / 0"}
{"sequence": "UUCACGUGUG", "pool": "0.314", "IR": "0.122 / 0.126 / 0.0369", "LM": "0.0276 / 0 / 0", "Sys": "0 / 0 / 0"}
{"sequence": "UUCACGUUAG", "pool": "0.536", "IR": "0.0521 / 0.0359 / 0.0369", "LM": "0 / 0 / 0.0232", "Sys": "0 / 0 / 0"}
{"sequence": "UUCACGUUCG", "pool": "0.301", "IR": "0.156 / 0.0539 / 0.0922", "LM": "0.0276 / 0 / 0", "Sys": "0 / 0 / 0"}
{"sequence": "UUCACGUUGG", "pool": "0.327", "IR": "0.104 / 0.0719 / 0.0184", "LM": "0 / 0 / 0.0232", "Sys": "0 / 0.0202 / 0"}
{"sequence": "UUCACGUUUG", "pool": "0.641", "IR": "0.0521 / 0.108 / 0.111", "LM": "0 / 0 / 0", "Sys": "0 / 0 / 0.0205"}
{"sequence": "UUCACUUUUG", "pool": "0.0261", "IR": "0 / 0 / 0", "LM": "0 / 0 / 0", "Sys": "0 / 0 / 0"}
{"sequence": "UUCCCAACCG", "pool": "0.0131", "IR": "0 / 0 / 0", "LM": "0 / 0 / 0", "Sys": "0 / 0 / 0"}
{"sequence": "UUCCCAUGGG", "pool": "0.0131", "IR": "0 / 0 / 0", "LM": "0 / 0 / 0", "Sys": "0 / 0 / 0"}
{"sequence": "UUCCCGAAAG", "pool": "0.209", "IR": "0.122 / 0.0719 / 0.0553", "LM": "0.0276 / 0 / 0", "Sys": "0 / 0 / 0"}
{"sequence": "UUCCCGAACG", "pool": "0.288", "IR": "0.0695 / 0.108 / 0.0369", "LM": "0 / 0 / 0", "Sys": "0 / 0 / 0"}
{"sequence": "UUCCCGAAGG", "pool": "0.209", "IR": "0.156 / 0.0898 / 0.0922", "LM": "0 / 0 / 0", "Sys": "0 / 0 / 0"}
{"sequence": "UUCCCGAAUG", "pool": "0.379", "IR": "0.191 / 0.144 / 0.111", "LM": "0.0276 / 0 / 0", "Sys": "0 / 0 / 0"}
{"sequence": "UUCCCGACAG", "pool": "0.183", "IR": "0.122 / 0.0898 / 0.148", "LM": "0.0276 / 0 / 0.0232", "Sys": "0 / 0 / 0"}
{"sequence": "UUCCCGACCG", "pool": "0.144", "IR": "0.0521 / 0.0359 / 0.0922", "LM": "0 / 0 / 0", "Sys": "0 / 0 / 0"}
{"sequence": "UUCCCGACGG", "pool": "0.222", "IR": "0.122 / 0.108 / 0.0369", "LM": "0.0276 / 0 / 0.0232", "Sys": "0 / 0 / 0"}
{"sequence": "UUCCCGACUG", "pool": "0.222", "IR": "0.104 / 0.126 / 0.0922", "LM": "0 / 0 / 0", "Sys": "0 / 0 / 0"}
{"sequence": "UUCCCGAGAG", "pool": "0.340", "IR": "0.209 / 0.0719 / 0.0553", "LM": "0 / 0.0252 / 0.0232", "Sys": "0 / 0 / 0"}
{"sequence": "UUCCCGAGCG", "pool": "0.248", "IR": "0.0348 / 0.108 / 0.0738", "LM": "0 / 0 / 0", "Sys": "0 / 0 / 0"}
{"sequence": "UUCCCGAGGG", "pool": "0.222", "IR": "0.122 / 0.108 / 0.0369", "LM": "0.0276 / 0 / 0", "Sys": "0 / 0 / 0"}
{"sequence": "UUCCCGAGUG", "pool": "0.144", "IR": "0.0521 / 0.0898 / 0.0553", "LM": "0 / 0 / 0", "Sys": "0 / 0 / 0"}
{"sequence": "UUCCCGAUAG", "pool": "0.353", "IR": "0.104 / 0.0719 / 0.0553", "LM": "0.0276 / 0 / 0.0928", "Sys": "0 / 0 / 0"}
{"sequence": "UUCCCGAUCG", "pool": "0.275", "IR": "0.122 / 0.0898 / 0.0922", "LM": "0 / 0 / 0", "Sys": "0 / 0 / 0.0205"}
{"sequence": "UUCCCGAUGG", "pool": "0.340", "IR": "0.191 / 0.0719 / 0.0922", "LM": "0.0276 / 0 / 0.0232", "Sys": "0 / 0 / 0"}
{"sequence": "UUCCCGAUUG", "pool": "0.261", "IR": "0.139 / 0.0719 / 0.0738", "LM": "0 / 0 / 0.0232", "Sys": "0 / 0 / 0"}
{"sequence": "UUCCCGCAAG", "pool": "0.209", "IR": "0.730 / 0.736 / 0.664", "LM": "0.0828 / 0.0757 / 0.162", "Sys": "0 / 0 / 0"}
{"sequence": "UUCCCGCACG", "pool": "0.301", "IR": "0.156 / 0.0898 / 0.0738", "LM": "0 / 0 / 0.0232", "Sys": "0 / 0 / 0"}
{"sequence": "UUCCCGCAGG", "pool": "0.157", "IR": "0.0521 / 0.162 / 0.0922", "LM": "0 / 0 / 0", "Sys": "0 / 0 / 0"}
{"sequence": "UUCCCGCAUG", "pool": "0.157", "IR": "0.0521 / 0.0539 / 0.129", "LM": "0 / 0 / 0", "Sys": "0 / 0 / 0"}
{"sequence": "UUCCCGCCAG", "pool": "0.222", "IR": "0.0695 / 0.0539 / 0.0738", "LM": "0 / 0 / 0", "Sys": "0 / 0 / 0"}
{"sequence": "UUCCCGCCCG", "pool": "0.222", "IR": "0.104 / 0.0898 / 0.129", "LM": "0 / 0 / 0", "Sys": "0 / 0 / 0"}

Wild type was 20.7 per thousand in the pool and the most common sequence in every sample (inoculated region 195, 198, 203; leaf margin 629, 591, 734; systemic leaves 942, 870, 868). The authors trace changes outside the varied positions to PCR and sequencing errors or to mutation in the plant; presence does not show that a variant is infectious alone. With 36,220-57,551 reads a sample, very low values are single reads.

From the data files of Wu et al. 2024, doi:10.1371/journal.ppat.1012142.